From US7045152B2, “Treating pulmonary disorders with gaseous agent causing repletion of GSNO” (Duke University, priority 1999, dated 2006)

Test system: cystic fibrosis
Assay: Inhaled gas / nebulized treatment of patients with cystic fibrosis (Examples IV, IX, XI, XII)
Format: in vivo, human
Conditions: Example IV
[1] = after the inhaled gas, nebulized solution 100 mM per 3 cc normal saline every 6 hours, maintenance

Question: thionitrosochloronitrite was tested. Which GSNO levels [1] did it give?
Answer: sustained for four days

Question: What about the “infection (pseudomonas pneumonia)” value [1] of the same substance?
Answer: infection resolves

Question: And the “GSNO (bronchoalveolar lavage)” value (person, cystic fibrosis, complete deficiency of GSNO, inhaled 5 parts per million in nitrogen)?
Answer: repletion of GSNO
